Anti-infective test results gathered from many reports (values: NIAID ChemDB through PubChem).

All rows: whole-cell or culture tests; agent: Cryptococcus neoformans; read-out: MIC

An empty or dashed field is not shown.

SMILES | strain | result
Clc1ccc2c(c1)nnc1c3ccccc3[nH]c21 | - | 0.1 µM
COc1cc(NC(C)CCCN)c2nc(C(C)(C)C)cc(C)c2c1Oc1cccc(C(F)(F)F)c1 | - | 5 µg/mL
COc1cc(O)c2c(c1)C(=O)c1cc(C)cc(O)c1C2=O | - | 50 µg/mL
C[C@H]([C@](O)(Cn1cncn1)c1ccc(F)cc1F)S(C)(=O)=O | R716 (AZOLE-R) | 5 µM
Clc1ccc(C(Cc2ccccc2)Cn2ccnc2)c(Cl)c1 | - | <1 µg/mL
CS(=O)(=O)OC1C(=O)N(c2ccccc2)C1c1ccccc1 | AH27/A | 18.92 µM
Clc1ccc(C(CCOc2ccc(Br)cc2)Cn2ccnc2)c(Cl)c1 | - | <10 µg/mL
CNC1C(C)OC(O[C@H]2c3cc(C)c(C(=O)N[C@@H](CO)C(=O)O)c(O)c3-c3c(cc4c(c3O)C(=O)c3cc(OC)cc(O)c3C4=O)[C@@H]2O)C(O)C1OC1OCC(O)C(O)C1O | D49 | 0.8 µg/mL
C(=C\COc1ccc(C2=NCCN2)cc1)/COc1ccc(C2=NCCN2)cc1 | ATCC 32264 | 4.12 µg/mL
C[C@@H](c1nc(-c2ccc(C#N)cc2)cs1)[C@](O)(Cn1cnnc1)c1ccc(F)cc1F | A28201 | 0.015 µg/mL
CC(=O)NC1=NN(C(C)=O)C2(CC(c3ccccc3)N(C(C)=O)C(c3ccccc3)C2C)S1 | - | >100 µg/mL
COC(=O)c1ccc(N2C(=O)C(OS(=O)(=O)c3ccc(C)cc3)C2c2ccc(OC)cc2)cc1 | AH27/A | 2.9 µM
Brc1ccc2[nH]c3c4ccccc4nnc3c2c1 | - | >200 µM
C[C@H]1[C@H](O)[C@@H](C)/C=C/C=C/C=C/C=C/C=C/C=C/C=C/[C@H](O[C@@H]2O[C@H](C)[C@@H](O)[C@H](N)[C@@H]2O)C[C@@H]2O[C@](O)(C[C@@H](O)C[C@@H](O)CC[C@H](O)[C@@H](O)C[C@@H](O)CC(=O)O[C@H]1C)C[C@H](O)[C@H]2C(=O)O | TIMM0354 | 0.25 µg/mL
OB1OCc2ccc3ccccc3c21 | - | 32 µg/mL
Cc1ccc2c(n1)sc1c(Cl)nnnc12 | - | 50 µg/mL
CC(=O)NC1=NN(C(C)=O)C2(CC(c3ccc(C)cc3)N(C(C)=O)C(c3ccc(C)cc3)C2C)S1 | - | >100 µg/mL
CC1(O)CC(=O)c2c(cc3ccc(-c4ccc5cc6c(c(O)c5c4O)C(=O)CC(C)(O)C6)c(O)c3c2O)C1 | - | 4 µg/mL
C=CC[C@@H]1/C=C(/C)C[C@H](C)C[C@H](OC)[C@H]2O[C@@](O)(C(=O)C(=O)N3CCCC[C@H]3C(=O)O[C@H](/C(C)=C/[C@@H]3CC[C@@H](O)[C@H](OC)C3)[C@H](C)[C@@H](O)CC1=O)[C@H](C)C[C@@H]2OC | C21F3 | 25 µg/mL
CC(CCC(=O)NCCCNCCCCNCCCN)[C@H]1CCC2C3CC[C@@H]4C[C@H](OS(=O)(=O)O)CC[C@]4(C)C3C[C@H](C)[C@@]21C | M68979 | 50 µg/mL
Cc1ccccc1C(Cc1ccc(Cl)cc1)Cn1ccnc1 | - | 10 µg/mL
CC(=O)OC1C(=O)N(c2ccccc2)C1c1ccc2c(c1)OCO2 | AH27/A | 159 µM
COc1cc(C2=NCCN2)ccc1OC/C=C\COc1ccc(C2=NCCN2)cc1OC | ATCC 32264 | 12.5 µg/mL
CC(C)=CCN=C(NCC=C(C)C)NCC=C(C)C | ATCC 90012 | 250 µg/mL
CC(N1CCN(c2ccc(-n3cncn3)cc2)C1=O)C(O)(Cn1cncn1)c1ccc(F)cc1F | TIMM1740 | 0.06 µg/mL
O=P([O-])(OCCBr)OCCCCCCCCCCCCCCCCOP(=O)([O-])OCCBr | 36556 | 6.25 µg/mL
Clc1ccc(C(CCCOc2ccccc2Br)Cn2ccnc2)c(Cl)c1 | - | <1 µg/mL
CC(N1CCN(c2ccc(-n3ccnn3)cc2)C1=O)C(O)(Cn1cncn1)c1ccc(F)cc1F | TIMM1740 | 0.13 µg/mL
COc1cc(C2=NCCN2)ccc1OC/C=C/COc1ccc(C2=NCCN2)cc1OC | ATCC 32264 | 12.5 µg/mL
c1ccc2c(c1)nnc1c3ccccc3[nH]c21 | - | 0.8 µM
CCCCCCCCCCCCCCCCCCC1=NCCCC1 | ATCC 90113 | 0.47 µg/mL
Cc1cc(O)c2c(c1)C(=O)c1cc(C(=O)O)cc(O)c1C2=O | - | 50 µg/mL
Clc1ccc(C(Cc2c(Cl)cccc2Cl)Cn2ccnc2)cc1 | - | <1 µg/mL
COc1ccc(N2C(=O)C(OC(C)=O)C2c2ccccc2)cc1 | AH27/A | 80.38 µM
COc1cc(O)c2c(c1)C(=O)c1c(cc3c(c1O)-c1c(cc(C)c(C(=O)NC(CO)C(=O)O)c1O)[C@H](OC1OC(C)C(N(C)C)C(OC4OCC(O)C(O)C4O)C1O)[C@H]3O)C2=O | IAM 4514 | 1.6 µg/mL
CC[C@@H]1[C@@H](Cn2cncn2)[C@H](COc2ccc(OC(F)(F)F)cc2)CC[C@@]1(C)CCN1CCOCC1 | CY1057 | 0.02 µg/mL
C[C@H](N1CCN(c2ccc(-n3cccn3)cc2)C1=O)[C@@](O)(Cn1cncn1)c1ccc(F)cc1F | TIMM1855 | 0.06 µg/mL
CCC(C)C1NC(=O)C(CC(C)C)OC(=O)C(C(C)C)OC(=O)C(NC(=O)C(C(C)CC)N(C)C(C)=O)C(C)OC(=O)C(CC(C)C)N(C)C(=O)C(C)NC(=O)C(C(C)C)N(C)C(=O)C(C(C)O)NC(=O)C(CC(C)C)N(C)C1=O | IAM 4772 | 1.56 µg/mL
Fc1ccc(OCCCC(Cn2ccnc2)c2ccc(Cl)cc2Cl)cc1 | - | <1 µg/mL
CC(C)=CCC/C(C)=C/CN(C)C(=N)N(C)C/C=C(\C)CCC=C(C)C | ATCC 90012 | 250 µg/mL
Clc1ccc(C(CCOc2ccccc2Br)Cn2ccnc2)c(Cl)c1 | - | <1 µg/mL
Cc1cc(O)c2c(c1)C(c1ccc3cc4c(c(O)c3c1O)C(=O)CC(C)(O)C4)c1cccc(O)c1C2=O | - | 4 µg/mL
CCC(C)n1ncn(-c2ccc(N3CCN(c4ccc(OC[C@H]5CO[C@](Cn6cncn6)(c6ccc(Cl)cc6Cl)O5)cc4)CC3)cc2)c1=O | TIMM1855 | 0.13 µg/mL

Conditions beyond the fields shown may differ between rows.